Results of unrelated studies side by side (data: NIAID ChemDB).

Common to all: growth or infection tests; agent: Influenza A virus

Percent inhibition refers to the dose given; in toxicity tests it is the harm to the cells. ECn: concentration that inhibits the pathogen or its effect by n%. Rows are shuffled and stem from different studies. An empty or dashed field is not shown.

| smiles | method | cell line | strain | endpoint | tested at | value |
|---|---|---|---|---|---|---|
| C[C@@H]1CCC[C@@H]2C[C@@H](NC(=O)c3c(O)ccc4ccccc34)CCN21 | plaque count | MDBK | H1N1 A/WSN/33 | EC50 | - | >20 µg/mL |
| NC1CCCCCCC1 | - | - | A/University of Maryland/2/72 | MIC | - | 0.1 µg/mL |
| N=C(N)c1ncn([C@@H]2O[C@H](CO)[C@@H](O)[C@H]2O)n1 | virus yield | MDCK | Influenza A/Victoria/3/75 (H3N2) | inhibition | 10 µg/mL | 90% |
| CC(N)C12CC3CC(CC(C3)C1)C2 | plaque count | MDCK | - | EC90 | - | 0.06 µg/mL |
| NC(=O)c1ncn([C@@H]2O[C@H](CO)[C@@H](O)[C@H]2O)n1 | - | - | A/University of Maryland/2/72 | MIC | - | 0.1 µg/mL |
| O=[N+]([O-])c1c(C2CCCCCC2)ncnc1N1CC[N+]2(CC1)CC[N+]1(CCN(c3ncnc(C4CCCCCC4)c3[N+](=O)[O-])CC1)CC2 | cytopathic effect | MDCK | - | EC50 | - | >70 µg/mL |
| C[C@@H]1CCC[C@@H]2C[C@@H](NC(=O)c3cc(Br)ccc3O)CCN21 | plaque count | MDBK | H1N1 A/WSN/33 | EC50 | - | 0.8 µg/mL |
| CC(N)C12CC3CC(CC(C3)C1)C2 | neutral red / visual reading | MDCK | Influenza A/Sydney/05/97 (H3N2) | EC50 | - | 0.06 µM |
| CSc1nc(Cl)c([N+](=O)[O-])c(N2CC[N+]3(CC2)CC[N+]2(CCN(c4nc(SC)nc(Cl)c4[N+](=O)[O-])CC2)CC3)n1 | cytopathic effect | MDCK | - | EC50 | - | >70 µg/mL |
| Cc1cccc(C(=O)N[C@H]2CCN3[C@H](CCC[C@H]3C)C2)c1O | plaque count | MDBK | H1N1 A/WSN/33 | EC50 | - | 8 µg/mL |
| NC(=O)c1nc(F)c[nH]c1=O | plaque count | MDCK | H3N2 AICHI/2/68 | EC50 | - | 0.078 µg/mL |
| C[C@@H]1CCC[C@@H]2C[C@@H](NC(=O)c3cc(-c4ccccc4)ccc3O)CCN21 | plaque count | MDBK | H1N1 A/WSN/33 | EC50 | - | >20 µg/mL |
| O=[N+]([O-])c1ccc(N2CC[N+]3(CC2)CC[N+]2(CCN(c4ccc([N+](=O)[O-])c5nonc45)CC2)CC3)c2nonc12 | cytopathic effect | MDCK | - | EC50 | - | >70 µg/mL |
| C[C@@H]1CCC[C@@H]2C[C@@H](NC(=O)c3cc(Cl)c(N=[N+]=[N-])cc3O)CCN21 | plaque count | MDBK | H1N1 A/WSN/33 | EC50 | - | >20 µg/mL |
| CC(N)C12CC3CC(CC(C3)C1)C2 | - | MDCK | H1N1 A/Brazil/11/78 | EC50 | - | 0.6 µM |